Data as given in PubChem BioAssay AID624099 (ICCB-Longwood, 2012).
Shown is a random part of about 21,000 deposited reagents. Of all reagents, 497 (2.4%) are marked active. 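Higher z means weaker E2 silencing; only reporter increases were scored, and knock-downs that hurt cell survival may mask genuine repressor factors.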 No sequences are given here.

Screen: 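Human genes that papillomavirus E2 requires to repress the HPV18 LCR promoter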 (primary screen)
Cells: human C33A cervical carcinoma cells (HPV-negative) stably expressing BPV1 E2 and an HPV18 LCR luciferase reporter
Reagent: siRNA pool against human genes, 40 nM
Duration: 72 h
Read-out: 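HPV18 LCR reporter light per well, converted to plate-wise z-scores that exclude control wells, and averaged over triplicate plates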
Direction: mean z-score and z-score: higher = stronger reporter signal, weaker E2 silencing
Rule for the call: 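Hit if mean z-score reaches 2 and two or more of three replicate z-scores also reach 2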

gene | mean z-score | z-score, replicate A | z-score, replicate B | z-score, replicate C | call
KRT8 (GeneID 3856) | 1.24 | 1.3 | 1.25 | 1.17 | inactive
CLPSL1 (GeneID 340204) | 0.43 | 0.3 | 0.64 | 0.36 | inactive
GDF1 (GeneID 2657) | -0.13 | -0.18 | -0.23 | 0.03 | inactive
NPBWR1 (GeneID 2831) | 0.02 | -0.23 | 0.37 | -0.07 | inactive
CAVIN2 (GeneID 8436) | -0.28 | 0.21 | -0.37 | -0.68 | inactive
NELL1 (GeneID 4745) | -0.27 | -0.52 | -0.36 | 0.08 | inactive
SLC25A23 (GeneID 79085) | -0.88 | -1.04 | -0.97 | -0.64 | inactive
FBXO7 (GeneID 25793) | 0.49 | 0.4 | 0.37 | 0.7 | inactive
DEFB108B (GeneID 245911) | 1.12 | 0.9 | 1.43 | 1.04 | inactive
PLCL2 (GeneID 23228) | 1.86 | 2.31 | 1.72 | 1.54 | inactive
CNTN6 (GeneID 27255) | 0.87 | 0.93 | 0.77 | 0.9 | inactive
RBFOX3 (GeneID 146713) | -0.27 | 0.22 | -0.15 | -0.87 | inactive
WHAMMP3 (GeneID 339005) | 1.78 | 1.59 | 1.89 | 1.86 | inactive
SLC9B1 (GeneID 150159) | 1.51 | 1.87 | 1.78 | 0.89 | inactive
EEIG1 (GeneID 399665) | 0.3 | 0.38 | 0.33 | 0.21 | inactive
STXBP5L (GeneID 9515) | 0.76 | 1.13 | 0.5 | 0.65 | inactive
SNRNP27 (GeneID 11017) | 0.2 | 0.23 | 0.37 | -0.01 | inactive
GPR75 (GeneID 10936) | 0.13 | 0.01 | 0.25 | 0.13 | inactive
ZNF436-AS1 (GeneID 148898) | -0.49 | -1.32 | -0.22 | 0.09 | inactive
GRIK2 (GeneID 2898) | 0.51 | 0.71 | 0.28 | 0.54 | inactive
LOC401345 (retired record) (GeneID 401345) | 0.52 | 0.5 | 0.44 | 0.63 | inactive
HDDC3 (GeneID 374659) | 0.92 | 0.9 | 0.99 | 0.88 | inactive
AHCYL1 (GeneID 10768) | -0.97 | -0.9 | -1.09 | -0.93 | inactive
OAZ2 (GeneID 4947) | -0.78 | -0.61 | -0.92 | -0.8 | inactive
NUBP1 (GeneID 4682) | 1.62 | 1.64 | 1.46 | 1.74 | inactive
LINC00858 (GeneID 170425) | -1.45 | -1.47 | -1.12 | -1.78 | inactive
RAB33B (GeneID 83452) | -1 | -1.06 | -0.86 | -1.09 | inactive
LINC00917 (GeneID 732275) | 0.25 | 0.1 | 0.28 | 0.35 | inactive
BATF2 (GeneID 116071) | -0.92 | -0.95 | -0.89 | -0.91 | inactive
CMTM2 (GeneID 146225) | -0.16 | 0.18 | 0 | -0.65 | inactive
TPSG1 (GeneID 25823) | -0.19 | -0.28 | -0.08 | -0.21 | inactive
POLR2G (GeneID 5436) | -2.85 | -2.83 | -2.97 | -2.76 | inactive
LINC00260 (GeneID 84719) | -0.31 | -0.59 | -0.27 | -0.06 | inactive
WFDC6 (GeneID 140870) | -0.51 | -0.35 | -0.56 | -0.63 | inactive
TATDN1 (GeneID 83940) | -1.58 | -1.54 | -1.54 | -1.67 | inactive
SSTR3 (GeneID 6753) | 0.15 | 0.12 | -0.19 | 0.52 | inactive
EFEMP1 (GeneID 2202) | -0.02 | -0.13 | -0.17 | 0.25 | inactive
ZNF155 (GeneID 7711) | 0.23 | 0.26 | 0.26 | 0.18 | inactive
TMEM140 (GeneID 55281) | 0.68 | 0.5 | 0.48 | 1.06 | inactive
GIGYF1 (GeneID 64599) | 0.89 | 0.84 | 0.9 | 0.92 | inactive
CROCC (GeneID 9696) | 3.14 | 3.16 | 3.13 | 3.14 | active
SNX31 (GeneID 169166) | -0.72 | -0.47 | -1.02 | -0.68 | inactive
HDHD2 (GeneID 84064) | 0.18 | 0.29 | 0.11 | 0.14 | inactive
MVD (GeneID 4597) | 0.6 | 0.54 | 0.55 | 0.7 | inactive
GPBP1 (GeneID 65056) | -0.45 | -0.53 | -0.66 | -0.18 | inactive
SNX21 (GeneID 90203) | 0.31 | 0.38 | 0.23 | 0.33 | inactive
SLC27A4 (GeneID 10999) | -0.59 | -0.57 | -0.76 | -0.43 | inactive
NSG1 (GeneID 27065) | -0.44 | -0.91 | -0.65 | 0.25 | inactive
KDM4A (GeneID 9682) | -0.49 | 0.01 | -0.77 | -0.72 | inactive
CPSF7 (GeneID 79869) | -0.6 | -0.4 | -0.58 | -0.81 | inactive
LACRT (GeneID 90070) | 0.5 | 0.35 | 0.63 | 0.52 | inactive
TSGA10 (GeneID 80705) | -1.17 | -1.33 | -1.11 | -1.07 | inactive
ZNF235 (GeneID 9310) | -0.29 | -0.33 | -0.34 | -0.2 | inactive
LSAMP (GeneID 4045) | -1.67 | -1.72 | -1.72 | -1.58 | inactive
ITGA5 (GeneID 3678) | -0.32 | -0.45 | -0.27 | -0.24 | inactive
FKRP (GeneID 79147) | -0.6 | -0.69 | -0.4 | -0.69 | inactive
MAGI1 (GeneID 9223) | -0.77 | -1.22 | -0.62 | -0.48 | inactive

Sorted by “z-score, replicate A” (lowest first): some entries from above
gene | mean z-score | z-score, replicate A | z-score, replicate B | z-score, replicate C | call
LINC00858 (GeneID 170425) | -1.45 | -1.47 | -1.12 | -1.78 | inactive
AHCYL1 (GeneID 10768) | -0.97 | -0.9 | -1.09 | -0.93 | inactive
OAZ2 (GeneID 4947) | -0.78 | -0.61 | -0.92 | -0.8 | inactive
LOC401345 (retired record) (GeneID 401345) | 0.52 | 0.5 | 0.44 | 0.63 | inactive
GRIK2 (GeneID 2898) | 0.51 | 0.71 | 0.28 | 0.54 | inactive
HDDC3 (GeneID 374659) | 0.92 | 0.9 | 0.99 | 0.88 | inactive
NUBP1 (GeneID 4682) | 1.62 | 1.64 | 1.46 | 1.74 | inactive
